Measured values from several laboratories, pooled; numbers as filed in NIAID ChemDB.

All rows: growth or infection tests

ECn: concentration that inhibits the pathogen or its effect by n%.

smiles,agent,tested at,cell line,read by,strain,setting,endpoint,mutations,value
O=C(Nc1ccc(C(F)(F)F)cc1)c1cc(Cl)ccc1OP(=O)(OCc1ccccc1)OCc1ccccc1,Mycobacterium kansasii,,,,My 6509/96,14 d,MIC,,16 µM
Nc1ncnc2c1cnn2C[C@@H](CO)OCP(=O)(O)O,Human herpesvirus 6,,HSB-2,cytopathic effect,GS,,EC50,,>10 µM
COc1cc(NCc2cnc3nc(N)nc(N)c3c2C)cc(OC)c1OC,Encephalitozoon intestinalis,1 µg/mL,RK-13,,,,inhibition,,81.8%
C[C@H]1NCc2cc(-c3ccc4c(=O)c(C(=O)O)cn(C5CC5)c4c3OC(F)F)ccc21,Haemophilus influenzae,,,,17 strains (beta-lactamase-producing),,MIC50,,0.016 µg/mL
O=C(Nc1ncc([N+](=O)[O-])s1)c1ccccc1O,Encephalitozoon intestinalis,0.1 µg/mL,RK-13,,,,inhibition,,40.4%
Nc1ccn(C[C@@H](CO)OCP(=O)(O)O)c(=O)n1,Human herpesvirus 6,,HSB-2,antigen / flow cytometry,GS,,EC50,,11 µM
NC(=O)c1ncn([C@@H]2O[C@H](CO)[C@@H](O)[C@H]2O)c1O,Respiratory syncytial virus,,HeLa,plaque count,,,EC50,,1.7 µg/mL
C[C@H](Cn1cnc2c(N)ncnc21)OCP(=O)(O)O,SIV,,PBMC,p27 / ELISA,,,EC90,,0.24 µM
O=c1cnn([C@@H]2O[C@H](CO)[C@@H](O)[C@H]2O)c(=O)[nH]1,West Nile virus,,VERO,cytopathic effect,NEW YORK,,EC50,,1.2 µg/mL
Nc1nc2c(ncn2COC(CO)CO)c(=O)[nH]1,Human herpesvirus 6,,HSB-2,cytopathic effect,GS,,EC50,,>25 µM
Nc1ccnc2c1ncn2[C@H]1C=C[C@@H](OCP(=O)(O)O)O1,Adenovirus,,,virus yield,Chicago (type 1),,EC90,,14 µg/mL
O=C1N(Cc2ccc(CO)cc2)[C@H](Cc2ccccc2)[C@H](O)[C@@H](O)[C@@H](Cc2ccccc2)N1Cc1ccc(CO)cc1,HIV-1,0.18 µM,PBMC,p24,Clinical isolate P,,inhibition,,90%
CCO/N=C/c1ccc(OCCC2CCN(c3ccc(C)nn3)CC2)cc1,Rhinovirus,,KB,neutral red,1505 (ICAM-1 receptor group 48),,EC50,,0.158 µM
O=C1C=CN([C@@H]2O[C@H](CO)[C@@H](O)[C@H]2O)C(=O)C1,Pichinde virus,,VERO 76,antigen,,,EC50,,5.2 µg/mL
CO[C@H]1[C@@H](OC(=O)/C=C/C=C/C=C/C=C/C(=O)O)CC[C@@]2(CO2)[C@@H]1[C@@]1(C)O[C@@H]1CC=C(C)C,Encephalitozoon cuniculi,5 µg/mL,MRC-5 fibroblasts,cytopathic effect,,,inhibition,,100%
Nc1ccn([C@@H]2CS[C@H](CO)O2)c(=O)n1,Adenovirus,,HEL,,TYPE 2,,EC50,,>250 µM
Oc1c(O)c(Cl)c(Cl)c(Cl)c1Cl,Saccharomyces cerevisiae,,,,288C,,MIC,,50 µg/mL
CCCSc1ccc2nc(NC(=O)OC)[nH]c2c1,Encephalitozoon cuniculi,0.001 µg/mL,MRC-5 fibroblasts,cytopathic effect,,,inhibition,,8%
NC(=O)c1[nH]nc([C@@H]2O[C@H](CO)[C@@H](O)[C@H]2O)c1O,West Nile virus,,VERO,cytopathic effect,NEW YORK,,EC50,,1.8 µg/mL
COc1cc(Cc2cnc(N)nc2N)cc(OC)c1OCCCNc1ccc(S(=O)(=O)c2ccc(N)cc2)cc1,Mycobacterium ulcerans,,,,Isolate 94-886,,MIC,,2 µg/mL
O=C(Nc1ccc(C(F)(F)F)cc1)c1cc(Cl)ccc1OP(=O)(Oc1ccccc1)Oc1ccccc1,Mycobacterium kansasii,,,,My 235/80,7 d,MIC,,2 µM
CN(C)c1cc(NC(=O)CNC(C)(C)C)c(O)c2c1C[C@H]1C[C@H]3[C@H](N(C)C)C(=O)C(C(N)=O)=C(O)[C@@]3(O)C(=O)C1=C2O,Mycobacterium abscessus,,,broth dilution,X6,,MIC,,1 µg/mL
Nc1ncnc2c1ncn2C[C@@H](CO)OCP(=O)(O)O,Human herpesvirus 6,,HSB-2,antigen / flow cytometry,GS,,EC50,,8 µM
O=C1c2cc(Br)ccc2OP(=O)(c2ccccc2)N1c1ccc(C(F)(F)F)cc1,Mycobacterium kansasii,,,,My 6509/96,21 d,MIC,,8 µM
Nc1ccn([C@@H]2C=C(CO)[C@@H](O)[C@@H]2O)c(=O)n1,West Nile virus,,VERO,cytopathic effect,Uganda,,EC50,,0.046 µg/mL
CC(C)(CO)C(=O)SCCOP(=O)(NCc1ccccc1)OC[C@H]1O[C@@H](n2cnc3c(=O)[nH]c(N)nc32)[C@](C)(O)[C@@H]1O,Hepatitis C virus,,Replicon cells,replicon,GT1b,,fold resistance,L31F,0.88
CO[C@@H]1[C@H](OC(=O)NC(=O)CCl)CC[C@]2(CO2)[C@H]1[C@@]1(C)O[C@@H]1CC=C(C)C,Encephalitozoon intestinalis,0.01 µg/mL,RK-13,,,,inhibition,,81.5%
CCc1nc(N)nc(N)c1-c1ccc(Cl)cc1,Encephalitozoon cuniculi,50 µg/mL,MRC-5 fibroblasts,cytopathic effect,,,inhibition,,35%
O=c1[nH]c(=O)n([C@H]2C[C@H](O)[C@@H](CO)O2)cc1I,Human herpesvirus 6,,HSB-2,cytopathic effect,GS,,EC50,,>1500 µM
CCN(CC)CCCC(C)Nc1ccnc2cc(Cl)ccc12,Encephalitozoon cuniculi,10 µg/mL,MRC-5 fibroblasts,cytopathic effect,,,inhibition,,29%
C[C@@H]1CN(c2c(F)c(N)c3c(=O)c(C(=O)O)cn(C4CC4)c3c2F)C[C@H](C)N1,Haemophilus influenzae,,,,38 strains (ampicillin-susceptible),,MIC90,,0.008 µg/mL
Nc1ncnc2c1ncn2C[C@@H](CO)OCP(=O)(O)O,Adenovirus,,,cytopathic effect,WT 300 (TYPE 5),,EC50,,15 µg/mL
Nc1ncnc2c1ncn2Cc1c(F)cccc1Cl,Encephalitozoon cuniculi,,MRC-5 fibroblasts,cytopathic effect,,,EC50,,>15 µg/mL
NC(=O)c1ncn([C@@H]2O[C@H](CO)[C@@H](O)[C@H]2O)n1,Measles virus,,CV-1,neutral red,Edmonston,,EC50,,10 µg/mL
Nc1ccn([C@@H]2C[C@H](CO)[C@@H](O)[C@H]2O)c(=O)n1,Vesicular stomatitis virus,,E6SM,cytopathic effect,,,EC50,,10 µg/mL
CCOC(=O)Nc1cc(NC/C(=N/O)c2ccc(Cl)cc2Cl)c([N+](=O)[O-])c(N)n1,Encephalitozoon intestinalis,1 µg/mL,RK-13,,,,inhibition,,3.9%
COc1c(C)c2c(c(O)c1C/C=C(\C)CCC(=O)O)C(=O)OC2,West Nile virus,,VERO,cytopathic effect / visual reading,Uganda,,EC50,,0.1 µg/mL
CCCCCCCCCCCCCCCCCCCCCCOCC(C)(COCCCCCCCCCCCCCCCCCCCCCC)CO[C@]1(C(=O)O)C[C@H](OS(=O)(=O)O)[C@@H](NC(C)=O)[C@H]([C@H](OS(=O)(=O)O)[C@@H](COS(=O)(=O)O)OS(=O)(=O)O)O1,Respiratory syncytial virus,,HEP-2,plaque count,LONG,,EC50,,0.32 µM
Nc1nc2c(ncn2CCOCP(=O)(O)O)c(=O)[nH]1,Parainfluenza virus,,,virus yield,14798 (TYPE 3),,EC90,,7 µg/mL
O=C(Nc1ccccc1)c1ccccc1OP(=O)(OCc1ccccc1)OCc1ccccc1,Mycobacterium kansasii,,,,My 235/80,14 d,MIC,,500 µM
Nc1ccn(C[C@@H](CO)OCP(=O)(O)O)c(=O)n1,Adenovirus,,HEL,cytopathic effect,TYPE 2,,EC50,,2 µM
O=C1c2ccccc2OP(=O)(c2ccccc2)N1c1ccccc1,Mycobacterium kansasii,,,,My 6509/96,7 d,MIC,,500 µM
NC1=NCN([C@@H]2O[C@H](CO)[C@@H](O)[C@H]2O)C(=O)N1,West Nile virus,,VERO,cytopathic effect,NEW YORK,,EC50,,>9.8 µg/mL
Nc1ncnc2c1ncn2C[C@H](O)CO,Pichinde virus,,VERO 76,antigen,,,EC50,,471 µg/mL
Nc1nc2c(nnn2CCOCP(=O)(O)O)c(=O)[nH]1,Human herpesvirus 6,,HSB-2,antigen / flow cytometry,GS,,EC50,,>25 µM
CC1(C)S[C@@H]2[C@H](NC(=O)[C@H](N)c3ccccc3)C(=O)N2[C@H]1C(=O)O,Haemophilus influenzae,,,,38 strains (ampicillin-susceptible),,MIC90,,1 µg/mL
O=C(O)P(=O)(O)O,Adenovirus,,HEL,,TYPE 2,,EC50,,>1000 µM
C[C@H](Cc1ccc(O)c(O)c1)[C@@H](C)Cc1ccc(O)c(O)c1,Candida glabrata,,,broth dilution,CCC 115-2000,,MIC100,,250 µg/mL
CCC(C)n1ncn(-c2ccc(N3CCN(c4ccc(OC[C@H]5CO[C@](Cn6cncn6)(c6ccc(Cl)cc6Cl)O5)cc4)CC3)cc2)c1=O,Candida albicans,,,,Isogenic isolate 3 MDR1 (25X),,MIC,,0.015 µg/mL
Nc1ncnc2c1ncn2[C@H]1C[C@H](F)[C@@H](CO)O1,Pichinde virus,,VERO,plaque count,,,EC50,,>32 µM
C#CC[C@@H](C(=O)N[C@H](/C=C/C(=O)OCC)C[C@@H]1CCNC1=O)n1cccc(NC(=O)c2cc(C)on2)c1=O,Rhinovirus,0.092 µM,H1-HELA,cytopathic effect / XTT,Serotype 23,,inhibition,,90%
CO[C@@H]1[C@@H](O[C@@H]2O[C@H](C)[C@@H](O[C@H]3C[C@@](C)(O)[C@@H](O)[C@H](C)O3)[C@H](N(C)C)[C@H]2O)[C@@H](CC=O)C[C@@H](C)[C@@H](O[C@H]2CC[C@H](N(C)C)[C@H](C)O2)/C=C/C=C/C[C@@H](C)OC(=O)C[C@H]1O,Toxoplasma gondii,1 µg/mL,,,,,inhibition,,40%
C[C@@H]1CN(c2c(F)c(N)c3c(=O)c(C(=O)O)cn(C4CC4)c3c2F)C[C@H](C)N1,Streptococcus pneumoniae,,,,Clinical isolate CP1000,,MIC,,0.25 µg/mL
CC(C)(C)C(=O)OCOP(=O)(COCCn1cnc2c(N)ncnc21)OCOC(=O)C(C)(C)C,Human herpesvirus 6,,HSB-2,antigen / flow cytometry,GS,,EC50,,0.53 µM
C[C@@H]1CN(c2c(F)c(N)c3c(=O)c(C(=O)O)cn(C4CC4)c3c2F)C[C@H](C)N1,Encephalitozoon cuniculi,50 µg/mL,MRC-5 fibroblasts,cytopathic effect,,,inhibition,,100%
CCOC(=O)Nc1cc2c(cn1)N=C(c1ccccc1)[C@H](C)N2,Encephalitozoon intestinalis,1 µg/mL,RK-13,,,,inhibition,,69.7%
CC1COc2c(N3CCN(C)CC3)c(F)cc3c(=O)c(C(=O)O)cn1c23,Streptococcus pneumoniae,,,,30 strains,,MIC50,,2 µg/mL
O=C(Nc1ccc(Br)cc1)c1cc(Cl)ccc1OP(=O)(Oc1ccccc1)c1ccccc1,Mycobacterium kansasii,,,,My 235/80,21 d,MIC,,8 µM
CCOc1cc(Cc2cnc(N)nc2N)cc(OCC)c1-n1cccc1,Mycobacterium ulcerans,,,,Isolate 5143,,MBC,,0.5 µg/mL
C[C@H]1c2cccc(O)c2C(O)=C2C(=O)[C@]3(O)C(O)=C(C(N)=O)C(=O)[C@@H](N(C)C)[C@@H]3[C@@H](O)[C@@H]21,Mycobacterium chelonae,,,broth dilution,,,MIC50,,>128 µg/mL
O=C(Nc1ccc(C(F)(F)F)cc1)c1cc(Cl)ccc1OP(=O)(c1ccccc1)c1ccccc1,Mycobacterium kansasii,,,,My 235/80,7 d,MIC,,2 µM
CC(=O)NC[C@H]1CN(c2ccc(N3CCN(C(=O)CO)CC3)c(F)c2)C(=O)O1,Streptococcus pneumoniae,,,,Penicillin-susceptible,,MIC90,,0.5 µg/mL
NC1CCN(c2nc3c(cc2F)c(=O)c(C(=O)O)cn3-c2ccc(F)cc2F)C1,Haemophilus influenzae,,,,38 strains (ampicillin-susceptible),,MIC90,,0.008 µg/mL
Nc1ccn(C[C@H]2COP(=O)(O)CO2)c(=O)n1,Adenovirus,,HEL,cytopathic effect,TYPE 2,,EC50,,3.9 µM
CN[C@@H]1[C@H](O[C@H]2[C@H](O[C@H]3[C@H](O)[C@@H](O)[C@H](N=C(N)N)[C@@H](O)[C@@H]3N=C(N)N)O[C@@H](C)[C@]2(O)C=O)O[C@@H](CO)[C@H](O)[C@H]1O,Klebsiella pneumoniae,,,,ESBL-3971,,MIC,,6.25 µg/mL
COc1cc(NCc2cnc3nc(N)nc(N)c3c2C)cc(OC)c1,Encephalitozoon intestinalis,1 µg/mL,RK-13,,,,inhibition,,70.4%
Nc1nc(=O)n([C@@H]2O[C@H](CO)[C@@H](O)[C@@H]2F)cc1I,Human herpesvirus 6,,HSB-2,antigen / flow cytometry,GS,,EC50,,>1 µM
C[C@@H](O)[C@H]1C(=O)N2C(C(=O)O)=C(SCCN=CN)C[C@H]12,Staphylococcus aureus,,,,25 strains (ofloxacin-resistant),,MIC50,,64 µg/mL

A second listing of 4 rows from above:

smiles,agent,tested at,cell line,read by,strain,setting,endpoint,mutations,value
CN[C@@H]1[C@H](O[C@H]2[C@H](O[C@H]3[C@H](O)[C@@H](O)[C@H](N=C(N)N)[C@@H](O)[C@@H]3N=C(N)N)O[C@@H](C)[C@]2(O)C=O)O[C@@H](CO)[C@H](O)[C@H]1O,Klebsiella pneumoniae,,,,ESBL-3971,,MIC,,6.25 µg/mL
CC(C)(C)C(=O)OCOP(=O)(COCCn1cnc2c(N)ncnc21)OCOC(=O)C(C)(C)C,Human herpesvirus 6,,HSB-2,antigen / flow cytometry,GS,,EC50,,0.53 µM
Oc1c(O)c(Cl)c(Cl)c(Cl)c1Cl,Saccharomyces cerevisiae,,,,288C,,MIC,,50 µg/mL
O=C(Nc1ccccc1)c1ccccc1OP(=O)(OCc1ccccc1)OCc1ccccc1,Mycobacterium kansasii,,,,My 235/80,14 d,MIC,,500 µM

Neighbouring rows are from separate reports. Fold resistance: result on the changed form divided by that on wild type. MIC50, MIC90 and the like: level of inhibition, or share of isolates inhibited. Blank or dashed fields: not listed here. Inhibition is in % at the dose shown (toxicity tests: loss of growth or viability).